What was measured:
[1] = tested on: primary mouse hepatocytes

## Aflatoxin B1 [AFB1]
[1]
  SSBs: induces SSBs that are detectable
Xpa−/− mouse hepatocytes
  SSBs: greatly reduced

From PMC7026589, “Sensitive CometChip assay for screening potentially carcinogenic DNA adducts by trapping DNA repair intermediates” (Nucleic Acids Research, 2019)
